Laboratory results from US12364719B2, “Bacillus subtilis strains improving animal performance parameters” (priority 2017, dated 2025).

Test system: Clostridium perfringens strain 56
Format: in vivo, Male Ross 308 broilers
Conditions: Day 25; 0-6 score

## CC1(C)S[C@@H]2[C@H](NC(=O)[C@H](N)c3ccc(O)cc3)C(=O)N2[C@H]1C(=O)O [Amoxicillin]
  Mean score (NE): 1.56
